# Measurements from publication PMC11436104 (Toxins, 2024).
# What was measured:
# [1] = molecular target: T1, Ser/Thr protein phosphatase type-2A (PP2A) (Bos taurus, UniProt P67774); assay: Colorimetric protein phosphatase inhibition assay, p-nitrophenyl phosphate substrate; assay type: biochemical, bovine
# T1 construct: PP2A; from bovine kidney; purchased Sigma P1868; host or cells: bovine kidney (tissue-purified)
# [2] = molecular target: T2, Ser/Thr protein phosphatase type-1 (PP1; α isoform catalytic subunit) (Oryctolagus cuniculus, UniProt P62139); assay: as above; assay type: biochemical, rabbit
# T2 construct: purchased Sigma 539493; host or cells: Escherichia coli
smiles,measurement,setting,value
"C=C1C(=O)N[C@H](C)C(=O)N[C@@H](CC(C)C)C(=O)N[C@@H](C(=O)O)[C@H](C)C(=O)N[C@@H](CCCNC(=N)N)C(=O)N[C@@H](/C=C/C(C)=C/[C@H](C)[C@H](Cc2ccccc2)OC)[C@H](C)C(=O)N[C@@H](C(=O)O)CCC(=O)N1C [MC-LR, Microcystin-LR, reference compound] (R[Adda][d(γGlu)][NMeDha][dA]L[dAsp(3S-Me)]-OH; lactam N-7)",fold lower PP2A IC50 than PP BL1125,[1],"at least 370,000 fold"
same,fold lower PP1 IC50 than PP BL1125,[2],"25,000 fold"

# *1 amine or outer side, *2 acyl side, *3 side chain or, on linkers, in order; H or OH if unused. Where a SMILES comes first, the peptide text is derived from it. Bridges are numbered along the chain shown (N, C = ends). [ ]: non-standard residue; d: D form. Adda = CO[C@@H](Cc1ccccc1)[C@@H](C)/C=C(C)/C=C/[C@H](N[*:1])[C@H](C)C(=O)[*:2]; dAsp(3S-Me) = C[C@H](C(=O)[*:3])[C@@H](N[*:1])C(=O)[*:2]; d(γGlu) = O=C(O)[C@@H](CCC(=O)[*:2])N[*:1]; NMeDha = C=C(NC)C(=O)O
